# Results of single-concentration screens

The filed quantity is “Percent Effect” (%).
The record does not define 0% and 100%; most values in the screen are far below 50% and negative numbers occur (in some assays of this library far below -100).
Many other results are left out here, so strong results are more common than in the screen.
Two or more numbers in one place are separate tests of the same structure; such repeats can differ widely.
A dash means the value is not listed here; it may have been measured.

Mtb glucose medium: 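Whole-cell growth test on Mycobacterium tuberculosis, read after 3 days in glucose-containing 7H9 medium; the read-out is not stated. Concentration: 50 µM. Direction is inferred from retests: higher values go with more growth inhibition. Size under these conditions: about 69,000 compounds, about 760 of them at 50% or above in at least one test.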
Mtb cholesterol medium: 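Growth of Mycobacterium tuberculosis over 4 days (cholesterol / DPPC medium with tyloxapol); the read-out is not stated. Compounds at 50 µM. Direction is inferred from retests: higher values go with more growth inhibition. About 69,000 compounds were tested under these conditions; 0.54% (about 370) showed 50% or more at least once.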

Cc1cnn(CC(C)NCC(=O)Nc2ccc(Cl)cn2)c1 (stereo not drawn) read Mtb glucose medium: -11.02% & -3.89%.
CNC(=O)CNCC1(O)CCCN(Cc2ccc(F)c(F)c2)C1=O (stereo not drawn) read Mtb glucose medium: 23.51%.
CCOCCC(=O)N1CCCN(c2ccccc2C)CC1 read Mtb glucose medium: 23.15%; Mtb cholesterol medium: 17.47%.
O=C1NCC2(CCCN(C(=O)c3c[nH]nc3C3CCCCC3)C2)O1 (stereo not drawn) read Mtb glucose medium: -1.567% & -6.275%.
COc1cccc2c1OCC(C(=O)N1Cc3ccccc3C1)C2 (stereo not drawn) read Mtb glucose medium: 4.225%.
O=C1CCCN1CCc1noc(-c2ccc(Cl)cc2)n1 read Mtb glucose medium: -13.18%.
CC(C)COc1cncc(NC(CO)c2ccco2)n1 (stereo not drawn) read Mtb glucose medium: -3.781%.
Cc1nc2c(c(N3CCC(CCn4cccn4)CC3)n1)CCNCC2 read Mtb glucose medium: 79.71%.
Cc1noc(NC(=O)c2ccc(C#N)cc2)n1 read Mtb glucose medium: 7.107%.
N#Cc1ccc(C(=O)NCCCNc2ccc(C(F)(F)F)cn2)cc1 read Mtb glucose medium: 19.44%; Mtb cholesterol medium: 29.3%.
CCN(Cc1ccncc1)c1cc(C2CCNCC2)nc(C)n1 read Mtb glucose medium: 0.3071%.
CO[C@@H]1CCN(Cc2nccs2)C[C@@H]1Cc1cccc(C)c1.O=C(O)C(F)(F)F read Mtb glucose medium: 32.61%; Mtb cholesterol medium: 22.81%.
O=C(c1cccc(NCc2cccc(F)c2)c1)N1CCC(O)CC1 read Mtb cholesterol medium: 2.565%.
O=c1n(CCSCCOc2ccc(Br)cc2)nc2ccccn12 read Mtb cholesterol medium: -10.6%.
Cc1ccc(CNC(=O)c2ccc(F)cc2)o1 read Mtb glucose medium: 51.73% & 48.4%.
O=C(NCc1ccccn1)Nc1ccc2[nH]nnc2c1 read Mtb glucose medium: 12.08% & -4.309%.
CC(C)c1noc(CN2CCN(C(=O)c3ccc(F)cc3)CC2)n1 read Mtb glucose medium: 113.1% & -3.961%.
CSCC(=O)NS(=O)(=O)c1ccc(C#N)c(C(F)(F)F)c1 read Mtb glucose medium: -39.61%.
CCC(CO)NC(=O)Cc1ccc(NC(=O)CC2=CCCCC2)cc1 (stereo not drawn) read Mtb cholesterol medium: 12.39% & 56.26%.
CCC1CN(CC(=O)NCCN2CCCCC2)c2ccccc2S1 (stereo not drawn) read Mtb glucose medium: 36.18%.
CN(C)c1ccc(CN(CCCn2ccnc2)Cc2c[nH]cn2)cc1.O=C(O)CC(O)(CC(=O)O)C(=O)O read Mtb glucose medium: 51.7%.
CCOc1cccc(COC(=O)c2ccc(Cl)cn2)n1 read Mtb glucose medium: 37.23%.
Cc1ccc(CN2CC(C(=O)NCC3CC3)C3(CCOCC3)C2)s1.O=C(O)C(F)(F)F (stereo not drawn) read Mtb glucose medium: 16.01% & -2.83%.
Cc1nc(C(Cc2ccsc2)NC(=O)CN2CCOCC2)sc1C (stereo not drawn) read Mtb glucose medium: -1.274%.
CCNC(=O)NC(C)(C)C(=O)NCCc1csc2ccccc12 read Mtb glucose medium: 12.68%.
Cc1cc(NC(=O)NCc2nncn2C)ccc1OC(C)C read Mtb glucose medium: -27.17%.

3 of the entries, repeated:

| Compound | Mtb glucose medium | Mtb cholesterol medium |
|---|---|---|
| `CSCC(=O)NS(=O)(=O)c1ccc(C#N)c(C(F)(F)F)c1` | -39.61% | - |
| `N#Cc1ccc(C(=O)NCCCNc2ccc(C(F)(F)F)cn2)cc1` | 19.44% | 29.3% |
| `CO[C@@H]1CCN(Cc2nccs2)C[C@@H]1Cc1cccc(C)c1.O=C(O)C(F)(F)F` | 32.61% | 22.81% |

Data taken from ChEMBL document CHEMBL3988442, “University of Dundee, Small-Polar-MMV Screening Library” (2021).